This is a selection; strong and weak results do not stand in their true shares. Inconclusive results are not listed. Active and inactive are the calls of the source. Calls follow the shape of the full dose curve; tested in A549 cells.
% is scaled to controls: 0 for no effect and ±100 for the full control effect.

A short description of this assay: qHTS for Stage-Specific Inhibitors of Vaccinia Orthopoxvirus: Venus Reporter Primary qHTS. Also: nearly all actives have a fitted effect of over 30% in size. To be noted: Vaccinia virus Venus reporter expression, fluorescence; at 36.5 µM (top of the series).
For `CCC(c1nnnn1C(C)(C)C)N1CCC(n2c(=O)[nH]c3ccccc32)CC1` (stereo unspecified), the activity change, negative = inhibition was inactive: -8.6%.

Regarding `CCCCn1nnnc1C(c1ccnc2ccccc12)N1CCC(n2c(=O)[nH]c3ccccc32)CC1` (stereo unspecified), the activity change, negative = inhibition was inactive: -9.49%.

`CCCCn1nnnc1C(c1ccccc1OC(F)(F)F)N1CCC(n2c(=O)[nH]c3ccccc32)CC1` (stereo unspecified): the activity change, negative = inhibition was inactive: -15.5%.

`CC(C)c1ccc(NC2CCN(C(=O)OC(C)(C)C)CC2)cc1`: the activity change, negative = inhibition is inactive: -13.6%.

In the case of `CN(C)c1cccc(C(=O)NCC2(N3CCCCC3)CCCCC2)c1`, the activity change, negative = inhibition was inactive: -10.2%.

As to `O=[N+]([O-])c1cc([N+](=O)[O-])c(OC2CCCCC2O)c([N+](=O)[O-])c1` (stereo unspecified), the activity change, negative = inhibition was inactive: -3.69%.

`COc1ccc(CN(CCCl)CCCl)cc1Cl`: the activity change, negative = inhibition was inactive: -5.74%.

Consider `O=C(NCC1(N2CCOCC2)CCCCC1)c1cc(=O)[nH]c2ccccc12`, for which the activity change, negative = inhibition was inactive: -15.4%.

For the molecule `COc1cc(C(=O)NCC2(N3CCCCC3)CCCCC2)ccc1OC(F)F`, the activity change, negative = inhibition is inactive: 0.797%.

With `CC(C)c1ccc(C(=O)NCC2(N3CCOCC3)CCCCC2)cc1`, the activity change, negative = inhibition was inactive: -12.1%.

In the case of `CN1CCN(CCOC(=O)C(O)(c2ccccc2)c2ccccc2)CC1`, the activity change, negative = inhibition is inactive: 0.23%.

Take `CCCCn1nnnc1C(c1cccc2ccccc12)N1CCC(n2c(=O)[nH]c3ccccc32)CC1` (stereo unspecified): the activity change, negative = inhibition was inactive: -14.2%.

Turning to `O=[N+]([O-])c1cc([N+](=O)[O-])c(NCC2CCS(=O)(=O)C2)c([N+](=O)[O-])c1` (stereo unspecified), the activity change, negative = inhibition was inactive: -28.2%.

As for `O=C(NCC1(N2CCCCC2)CCCCC1)c1cccc(C(F)(F)F)c1`, the activity change, negative = inhibition is inactive: 0%.

As to `CCCOc1cccc(C(=O)NCC2(N3CCOCC3)CCCCC2)c1`, the activity change, negative = inhibition was inactive: -8.28%.

Take `O=c1[nH]c2ccccc2n1C1CCN(C(c2ccccc2OC(F)(F)F)c2nnnn2C2CCCC2)CC1` (stereo unspecified): the activity change, negative = inhibition is inactive: -7.56%.

Take `N#CC1(Nc2ccccc2)CCN(CCc2ccccc2)CC1`: the activity change, negative = inhibition is inactive: -6.9%.

As for `CCOc1ccc(C(=O)NCC2(N3CCOCC3)CCCCC2)cc1`, the activity change, negative = inhibition is inactive: 4.49%.

Consider `CSc1ccc(C(=O)NCC2(N3CCOCC3)CCCCC2)cc1`, for which the activity change, negative = inhibition is inactive: -12.8%.

Regarding `O=C(NCC1(N2CCCCC2)CCCCC1)c1ccc(OC(F)F)cc1`, the activity change, negative = inhibition is inactive: -3.61%.

For the molecule `CC(C)(C)n1nnnc1C(c1ccccc1OC(F)(F)F)N1CCC(n2c(=O)[nH]c3ccccc32)CC1` (stereo unspecified), the activity change, negative = inhibition was inactive: -17.7%.

(Values after PubChem BioAssay AID720580 (National Center for Advancing Translational Sciences (NCATS), 2013).)
